Source: PMC10833071, “Trojan horselike T6SS effector TepC mediates both interference competition and exploitative competition” (2024)

Biological target: TepC (purified protein) (Yersinia pseudotuberculosis)
Test: ITC; TepC with TipC; conditions in the Supplementary Methods

Work on TipC (natural protein) yielded a Kd of 0.012 µM.
